Consider one substance from article PMC7817669.

pKd: −log10 of the molar value.

For orientation: pKd means −log10 of the Kd, conventionally taken in molar units. As a reminder, the koff is a measure of how fast the partners let go of each other. A word on the kon: it is the second-order rate constant of association.

The target of this test is human ACE2 (angiotensin-converting enzyme 2) (human) (UniProt Q9BYF1). The test can be described thus: BLI.

In turn, “sCoV-RBD (RBD of the SARS-CoV spike fused with a human IgG1 Fc fragment) (from UniProt P59594 306-527) (Fc fusion)” showed a negative logarithm of the Kd (pKd) of 8.95, a koff of 0.000133 s⁻¹ and a kon of 120000 M⁻¹ s⁻¹.
